Assay results reported in the supplement of paper PMC9931576.
Human monoclonal antibodies against the spike receptor-binding domain (heavy:light variable regions). IC50 against pseudoviruses bearing the spike of naturally observed variants; lower = stronger; >10 µg/ml means not reached at the top dose. No active / inactive call. The stated detection limit is 0.0005 µg/ml; values near or below 0.001 µg/ml lie at the floor of the assay.

B1: BD56-1625 (protein)
chain 1: EVQLVESGGGLVQPGRSLRLSCAASGFTFGDHAMHWVRQAPGKGLEWVSGISWNSGGIDYADSVKGRFTISRDNSKSSLYLQMNSLRAEDTAFYYCARDSFGEQQLLYGLDVWGQGTTVTVSS
chain 2: DIQMTQSPSSLSASVGDRVTITCRASQTISTYLNWYQQKPGKAPKLLIYAASNLQSGVPSRFSGSGSGTDFTLTISSLQPEDFATYYCQQSYSTPATFGGGTKVEIK
B2: BD56-1615 (protein)
chain 1: QLQLQASGPGLVKPSETLSLTCTVSGGSISSTTHFWGWIRQPPGKGLEWIGSIFYSGRTHYTPSLKSRVAMSVDTSKNQVSLRLRSVTAADTAVYYCARLVDVGVAGTSGYYFDYWGQGTLVTVSS
chain 2: SYVLTQPPSVSVAPGKTARITCEENNIGSKNVHWYQQKPGQAPVLVVYDDSDRPSGIPERFSGSNAGNTATLTISRVEAGDEADYYCQVWDSSSDWVFGGGTKLTVL
B3: COV2-2479 (protein)
chain 1: QVQLVQSGAEVKKPGSSVKVSCKTSGDTSSSYTVGWVRQAPGQGLEWMGRIIPILGIAYSAQKFQGRLTITADKSTSTSYMELSSLRSEDTAVYYCARGVVAATPGWFDPWGQGTLVTVSS
chain 2: EIVMTQSPATLSVSPGERVTLSCRASQSVSSNLAWYQQKPGQAPRLLIYGASTRATGIPARFSGGGSGTEFTLTISSLQSEDFAVYYCQQYNNFLTFGGGTKVEIK
B4: COV2-2955 (protein)
chain 1: QVQLVESGGGVVQPGRSLRLSCAASGFTFVTSGIHWVRQAPGKGLEWVAVISYDGSNKYYADSVKGRFTISRDNSKNTLYLQMNSLRAEDTAVYYCAKGGPNKEVLYFGELLDYGMDVWGQGTTVTVSS
chain 2: DIVMTQTPLSLSVTPGQPASFSCKSSQSLLHSDGKTYLYWYLQKPGQSPQLLIYAVSNRFSGVPDRFSGSGSGTDFTLKISRVEAEDVGVYYCMQSIQLPYTFGQGTKLEIK
B5: BD56-1618 (protein)
chain 1: EVQLVQSGPEVKKPGSSVRVSCKASGGTFGSNTITWVRQAPGQGLEWMGRVIPILDIPTYAQEFQGRITVTADTSTSTAYMELSGLTSEDTAVYYCARSFGGTSGRPYFYMDVWGTGTAVTVSS
chain 2: DTQMTQSPSTLSASLGDRVSITCRASHDISNWLAWYQQKPGKAPKLLIYLASTLESGVPSRFSGSGSGTEFTVTISSLQPDDFATYYCQQFHSYPYSFGQGTKLEIK
B6: BD56-1608 (protein)
chain 1: EVQLQESGPGLVKPSQTLSLTCTVSGGSISGGGYYWSWLRQHPGKGLEWIGYIHYSGTTYYNPSLKSRVSISVDTSKNQFSLRLTSMTAADTAVYYCARVGDDDYFDSWGQGTLVIVSS
chain 2: EIVLTQSPATLSLSPGERATLSCRASQSISTYLAWYQQTRGQAPRLLIYDASYRATGIPVRFSGSGSGTDFTLTISSLEPEDFAVYYCQQRYNWPPITFGQGTRLEIK
B7: BD56-1612 (protein)
chain 1: QVTLRESGPALVKPTQTLTLTCTFSAFSLSTNGMCVTWIRQPPGKALEWLARIDWDDDKFYSTSLKTRLTISKDTSKNQVVLTMTNMDPVDTATYYCARGRLGGFDSYLDYWGQGTLVTVSS
chain 2: QSVLTQPPSASGTPGQRVTVSCSGSSSNIGSNTADWYQQLPGTAPKLLIYTNDQRPSGVPDRFSGSKSGTSASLAISGLQSEDEADYFCAAWDDSLDVYVFGTGTKVTVL
B8: BD56-1633 (protein)
chain 1: QVQLVESGGGVVQPGRSLRLSCTPSGFTFRTYGFHWVRQAPGKGLEWVAVISYDGDKKYYAESVKGRFTISRDKSKNTLNLQMNSLRTEDTAIYYCAKAHGPYCGGTNCYSQPADYWGRGTLVTVSS
chain 2: SYVLTQPPSVSVAPGKTARITCGGDNIGGDSVHWYQQRPGQAPVLVIYFNTDRPSGIPERFSGSISGNTATLTISRVEAGDEADYYCQVWDSSRDQGVFGTGTKVTVL
B9: BD56-1607 (protein)
chain 1: QLQLQESGPGLVKPSETLSLTCTVSGGSISSSSYYWGWIRQPPGKGLEWIGSVFYSGITYYSPSLKSRVTISADTSKNQFSLRLSSVTAADTAVYYCARDVKSFAVPAARSFDYWGQGTLVTVSS
chain 2: QSALTQPASVSGSPGQSITISCTGTSSDVGTYDLVSWYQQHPGKVPKLMIYEVNKRPSGVSHRFSGSKSGNTASLTISGLQAEDEADYYCFSYAGIRIFGGGTKLTVL
B10: BD56-1629 (protein)
chain 1: EVQLVQSGAEVKKPGESLKISCQVSGYYFTSYWVGWVRQMPGKGLELMGIIFPGDSDTRYSPSFQGQVTISADKSINTAYLQWSSLKASDTAMYYCAITDSGSYYPFDYWGQGTLVTVSS
chain 2: DIQMTQSPSSLSASIGDRVTITCRASQSISSYLNWYQQKPGKAPKLLIYAASSLPSGVPSRFSGSGSGTDFTLTISSLQPGDYATYYCQQSYSMSWTFGQGTKVEIK
B11: BD56-1595 (protein)
chain 1: EVQLVQSGAEVKKAGESLKISCKGSGYSFISNWIAWVRQKPGKGLEWMGIIYPGDSDTRYSPSFQGQVTLSADKSISTAYLQWNSLKASDTAMYYCARLYDYVGFDPWGRGTLVTVSS
chain 2: SSELTQDPAVSVALGQTIRITCQGDSLRSYYASWYQQRPRQAPVLVIYDKDKRPSGIPDRFSGSSSGNTASLTITGAQAEDEADYYCNSRDNSDYHFVFGTGTKVTVL
B12: BD56-1601 (protein)
chain 1: QVQLVQSGAEVKKPGASVKVSCKASGYTFINYGISWVRQAPGQGLEWMGWISAYNGHTNYAQKFQGRVTMTTGTSPSTAYMELRSLRVDDTAVYYCARDSGQSDYYNEGSGTFDYWGQGTRVTVSS
chain 2: SYELTQPSSVSVSPGQTARISCSGDVLAKRYARWFRQQPGQAPVLVIYKDSQRPSGIPERFSGSSSGTTVTLTISGAQVEDEADYFCYCEADNNERVFGGGTKLTVL

Key:
Assay in all cases: pseudovirus neutralization IC50; higher = weaker neutralization
[1] = biological target: SARS-CoV-2 Omicron BA.1 spike pseudovirus
Experimental: (§1)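 Single-round VSV luciferase pseudovirus mixed with antibody dilutions for 1 h and put on Huh-7 cells for about a day; IC50 from the dose curve.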

[2] = biological target: SARS-CoV-2 Omicron BA.2 spike pseudovirus
Experimental: as §1

[3] = biological target: SARS-CoV-2 Omicron BA.2.75 spike pseudovirus
Experimental: as §1

[4] = biological target: SARS-CoV-2 Omicron BA.5 spike pseudovirus
Experimental: as §1

[5] = biological target: SARS-CoV-2 Omicron BQ.1.1 spike pseudovirus
Experimental: as §1

[6] = biological target: SARS-CoV-2 Omicron XBB spike pseudovirus
Experimental: as §1

[7] = biological target: SARS-CoV-2 early D614G spike pseudovirus
Experimental: as §1

Binder	pseudovirus neutralization IC50 [1] [µg/mL]	pseudovirus neutralization IC50 [2] [µg/mL]	pseudovirus neutralization IC50 [3] [µg/mL]	pseudovirus neutralization IC50 [4] [µg/mL]	pseudovirus neutralization IC50 [5] [µg/mL]	pseudovirus neutralization IC50 [6] [µg/mL]	pseudovirus neutralization IC50 [7] [µg/mL]
B1	> 10	> 10	> 10	> 10	> 10	> 10	> 10
B2	0.353	0.598	0.746	0.962	4.71	5.59	> 10
B3	> 10	> 10	> 10	> 10	> 10	> 10	0.0031
B4	> 10	> 10	> 10	> 10	> 10	> 10	0.0249
B5	0.0064	0.00185	0.00217	> 10	> 10	> 10	0.00288
B6	> 10	> 10	> 10	> 10	> 10	> 10	> 10
B7	0.0941	0.00136	0.14	0.000435	> 10	1.39	0.0443
B8	> 10	> 10	> 10	> 10	> 10	> 10	> 10
B9	> 10	> 10	> 10	> 10	> 10	> 10	> 10
B10	> 10	> 10	> 10	> 10	> 10	> 10	> 10
B11	1.07	1.11	0.5	0.918	0.978	0.8	1.6
B12	> 10	> 10	> 10	> 10	> 10	> 10	2.04
